## Positions that govern dimerization of the HIV-1 5' RNA

Reference: Ye et al. 2022, doi:10.1038/s41594-022-00746-2.

RNA: 5' end of the HIV-1 NL4-3 genome, made in vitro. Positions 1-437 read:
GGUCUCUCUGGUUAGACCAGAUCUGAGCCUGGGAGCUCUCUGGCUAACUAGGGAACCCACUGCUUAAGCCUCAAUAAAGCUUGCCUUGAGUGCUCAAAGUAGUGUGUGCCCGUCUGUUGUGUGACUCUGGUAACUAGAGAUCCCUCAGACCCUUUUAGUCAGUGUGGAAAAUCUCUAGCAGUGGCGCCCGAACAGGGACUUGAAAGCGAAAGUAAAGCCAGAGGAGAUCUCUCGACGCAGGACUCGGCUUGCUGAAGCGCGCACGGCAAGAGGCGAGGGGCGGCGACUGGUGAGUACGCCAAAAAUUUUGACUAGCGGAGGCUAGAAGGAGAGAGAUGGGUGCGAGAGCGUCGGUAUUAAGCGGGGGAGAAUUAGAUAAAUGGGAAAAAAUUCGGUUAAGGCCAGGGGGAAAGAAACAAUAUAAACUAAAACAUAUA

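Randomly mutated transcripts starting with one, two or three G (1G, 2G, 3G), capped or uncapped, were folded for 30 min at 37 °C. High salt was 300 mM KCl and 5 mM MgCl2, low salt 40 mM KCl and 0.1 mM MgCl2; monomer and dimer were parted on a native gel. Mutation frequencies in the two bands give Kdimer.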

Scale: median log2 Kdimer over the changes at a position; positive = changes inhibit dimerization, negative = changes enhance it. One numbering serves 1G, 2G and 3G. A position is written with its base.

| position | 3G capped low-salt | 3G uncapped low-salt |
|---|---|---|
| A192 | 0.26 | 0.34 |
| C193 | -0.33 | -0.31 |
| A194 | 0.92 | 0.88 |
| G195 | 0.83 | 0.78 |
| G196 | 0.87 | 0.85 |
| G197 | 0.98 | 1.06 |
| A198 | -0.48 | -0.45 |
| C199 | -0.14 | -0.11 |
| U200 | 0.07 | 0.12 |
| U201 | -0.19 | 0.01 |
| G202 | -0.22 | -0.24 |
| A203 | 0.76 | 0.74 |
| A204 | -0.03 | 0.18 |
| A205 | -0.04 | -0.06 |
| G206 | -1.10 | -0.88 |
| C207 | -0.42 | -0.46 |
| G208 | -0.16 | -0.21 |
| A209 | 0.91 | 0.86 |
| A210 | -0.09 | -0.11 |
| A211 | -0.25 | -0.46 |
| G212 | -0.90 | -0.77 |
| U213 | -0.53 | -0.62 |
| A214 | 0.04 | -0.03 |
| A215 | -0.16 | -0.03 |
| A216 | -0.53 | -0.57 |
| G217 | -1.24 | -1.15 |
| C218 | -0.71 | -0.75 |
| C219 | 0.86 | 1.02 |
| A220 | -0.07 | -0.11 |
| G221 | 0.30 | 0.51 |
| A222 | 0.79 | 0.78 |
| G223 | 0.75 | 0.77 |
| G224 | -0.16 | -0.46 |
| A225 | -0.07 | -0.11 |
| G226 | -0.60 | -0.64 |
| A227 | 1.39 | 1.44 |
| U228 | 0.09 | -0.03 |
| C229 | 0.45 | 0.47 |
| U230 | 0.77 | 0.83 |
| C231 | 0.22 | 0.07 |
| U232 | 0.91 | 1.02 |
| C233 | 0.94 | 0.74 |
| G234 | 0.29 | 0.43 |
| A235 | -1.59 | -1.56 |
| C236 | 1.94 | 1.69 |
| G237 | 1.00 | 0.90 |
| C238 | 2.35 | 2.26 |
| A239 | -0.34 | -0.26 |
| G240 | -0.28 | -0.15 |
| G241 | -0.45 | -0.62 |
| A242 | 2.02 | 1.98 |
| C243 | 1.44 | 1.72 |
| U244 | 1.45 | 2.39 |
| C245 | 2.06 | 1.97 |
| G246 | 1.92 | 2.04 |
| G247 | -1.27 | -1.34 |
| C248 | 0.80 | 0.78 |
| U249 | 1.85 | 1.86 |
| U250 | 2.93 | 1.87 |
| G251 | 3.65 | 5.33 |
| C252 | 3.57 | 3.61 |
| U253 | 2.65 | 2.47 |
| G254 | 2.97 | 2.63 |
| A255 | -0.40 | -0.36 |

Extract of 3 entries:

{"position": "A210", "3G capped low-salt": -0.09, "3G uncapped low-salt": -0.11}
{"position": "C207", "3G capped low-salt": -0.42, "3G uncapped low-salt": -0.46}
{"position": "G202", "3G capped low-salt": -0.22, "3G uncapped low-salt": -0.24}